Measured values from several laboratories, pooled; numbers as filed in NIAID ChemDB.

Common to all: growth or infection tests; species: Rhinovirus; read by: plaque count; measure: EC50

An empty or dashed field is not shown. ECn is the concentration giving n% inhibition of infection, replication or growth. Conditions beyond the fields shown may differ between rows.

compound	strain	cell line	result
COc1cc(C(=O)Oc2c(-c3ccc(Cl)c(Cl)c3)oc3ccccc3c2=O)cc(OC)c1OC(C)=O	Serotype 14	HeLa	>6.25 µM
Cc1cc(CCCOc2c(C)cc(-n3nnc(C)n3)cc2C)on1	Serotype 3	-	0.158 µg/mL
Clc1ccc(C2COc3ccc(Cl)cc3C2)cc1	Serotype 1B	M-HELA	0.162 µM
CN(C)c1nc(Cl)nc2c1ncn2Cc1ccc(Cl)cc1	Serotype 21	M-HELA	>5 µM
O=c1c(O)c(-c2ccc(Cl)c(Cl)c2)oc2ccccc12	Serotype 14	HeLa	1.01 µM
Cc1cc(CCCOc2c(Cl)cc(C3=NCCO3)cc2Cl)on1	Serotype 14	-	>8.7 µg/mL
Clc1ccc(C2CCc3cc(C4=NCCO4)ccc3O2)cc1	TYPE 1B	HeLa	0.51 µM
CN(C)c1nc(C(F)(F)F)nc2c1ncn2Cc1ccc([N+](=O)[O-])cc1	Serotype 21	M-HELA	>8 µM
Cn1c2ccccc2c2nnc(NCCCCO)nc21	2060	WI-38	45 µg/mL
N#Cc1ccc2c(c1)CCC(c1ccccc1)O2	TYPE 1B	HeLa	0.14 µM
Cn1c2ccccc2c2nnc(NCCCCCO)nc21	1059	WI-38	45 µg/mL
O=C1c2ccccc2OCC1Cc1ccc(Cl)cc1	TYPE 1B	HeLa	1.23 µM
O=C(O)c1ccc(/C=C/C(=O)c2cc(Cl)ccc2O)cc1	TYPE 1B	OHIO HELA	>25 µM
O=c1c(Cc2ccc(Cl)cc2)coc2cc(Cl)cc(Cl)c12	TYPE 14	HeLa	4.27 µM
c1ccc(C2COc3ccccc3C2)cc1	Serotype 1B	M-HELA	0.417 µM
CC(O)CCNc1nnc2c3ccccc3n(C)c2n1	1059	WI-38	45 µg/mL
c1ccc2c(c1)CCC(c1ccc(C3=NCCO3)cc1)O2	TYPE 1B	HeLa	0.56 µM
Cc1cc(CCCCCOc2c(Cl)cc(C3=NCCO3)cc2Cl)on1	TYPE A1	HeLa	0.98 µg/mL
COc1ccc(C(C(N)=O)c2ccc3nc(N)n(S(=O)(=O)C(C)C)c3c2)cc1F	1059 (serotype 14)	HeLa	0.05 µg/mL
O=c1c(Cc2ccc(O)cc2)coc2ccccc12	TYPE 14	HeLa	16.2 µM
O=c1cc(-c2ccc(C3=NCCO3)cc2)oc2ccccc12	TYPE 1B	OHIO HELA	>25 µM
Fc1cccc(Cn2cnc3c(Nc4cccc(F)c4)nc(C(F)(F)F)nc32)c1	Serotype 54	M-HELA	>2.5 µM
COC(=O)c1ccc(-c2oc3ccc(Cl)cc3c(=O)c2OC)cc1	TYPE 1B	OHIO HELA	3.82 µM
CC(=O)c1c(-c2ccc(Cl)cc2)oc2ccccc2c1=O	Serotype 14	HeLa	2.12 µM
CN(C)c1nc(C(F)(F)F)nc2c1ncn2Cc1ccc(Cl)c(N)c1	Serotype 21	M-HELA	>8 µM
CNC(=O)C(c1ccc2nc(N)n(S(=O)(=O)C(C)C)c2c1)c1cccc(F)c1F	1059 (serotype 14)	HeLa	0.01 µg/mL
N#Cc1ccc(C2CCc3cc(C#N)ccc3O2)cc1	TYPE 1B	HeLa	0.023 µM
CNC(=O)C(c1cccc(F)c1)c1ccc2nc(N)n(S(=O)(=O)N(C)C)c2c1	1059 (serotype 14)	HeLa	0.03 µg/mL
CN(C)c1nc(C(F)(F)F)nc2c1ncn2Cc1ccc(F)cc1	Serotype 19	M-HELA	>8 µM
Nc1ccc(Cn2cnc3c(Nc4cccc(F)c4)nc(C(F)(F)F)nc32)cc1	Serotype 5	M-HELA	>40 µM
CN(C)S(=O)(=O)n1c(N)nc2ccc(C(C(N)=O)c3cccc(F)c3)cc21	1059 (serotype 14)	HeLa	0.05 µg/mL
O=C(Oc1c(-c2ccc(Cl)c(Cl)c2)oc2ccccc2c1=O)c1cc(O)c(O)c(O)c1	Serotype 14	HeLa	>25 µM
O=C1/C(=C/c2ccc(Cl)cc2)COc2cc(Cl)cc(Cl)c21	TYPE 14	HeLa	>6.25 µM
CC(=O)Oc1ccc(/C=C/C(=O)Oc2c(-c3ccc(Cl)cc3)oc3ccccc3c2=O)cc1OC(C)=O	Serotype 1B	HeLa	>0.39 µM
Cn1c2ccccc2c2nnc(NCCC(C)(C)O)nc21	1059	WI-38	40 µg/mL
Cc1cc(Cn2cnc3c(N(C)C)nc(C(F)(F)F)nc32)ccc1Cl	Serotype 13	M-HELA	>8 µM
CCOC(=O)c1ccc(C2CC(=O)c3ccccc3O2)cc1	TYPE 1B	OHIO HELA	>25 µM
COc1cc(C(=O)Oc2c(-c3ccc(Cl)c(Cl)c3)oc3ccccc3c2=O)ccc1O	Serotype 14	HeLa	>6.25 µM
Cn1c2ccccc2c2nnc(NCC(O)CO)nc21	HGP	WI-38	100 µg/mL
CN(C)c1nc(C(F)(F)F)nc2c1ncn2Cc1ccc(Cl)cc1Cl	Serotype 18	M-HELA	>8 µM
Cc1ccc(Cn2cnc3c(N(C)C)nc(C(F)(F)F)nc32)cc1	TYPE 31	M-HELA	1.2 µM
CC(=O)Oc1ccc(/C=C/C(=O)Oc2c(-c3ccc(Cl)c(Cl)c3)oc3ccccc3c2=O)cc1OC(C)=O	Serotype 1B	HeLa	>0.39 µM
Clc1ccc2c(c1)CC(c1ccccc1)CO2	Serotype 1B	M-HELA	0.266 µM
O=c1cc(-c2ccc(C3=NCCO3)cc2)oc2ccc(Cl)cc12	TYPE 1B	OHIO HELA	14.51 µM
COc1ccc(OCCCCCCn2ccnc2)c(Cl)c1	TYPE 14	HeLa	27.6 µM
O=c1c(Cc2ccc(Cl)cc2)coc2ccccc12	TYPE 14	HeLa	>25 µM
CC(C)c1ccc(Cn2cnc3c(N(C)C)nc(Cl)nc32)cc1	Serotype 1B	M-HELA	0.07 µM
CN(C)c1ccc(Cn2cnc3c(N(C)C)nc(C(F)(F)F)nc32)cc1	Serotype 5	M-HELA	>8 µM
O=C1/C(=C/c2ccccc2)COc2ccccc21	TYPE 1B	HeLa	>6.25 µM
CN(C)c1nc(C(F)(F)F)nc2c1ncn2Cc1ccc(Cl)c(Cl)c1	Serotype 13	M-HELA	>8 µM
Clc1ccc2c(c1)C=C(c1ccccc1)CO2	Serotype 1B	M-HELA	7.258 µM
CCCOc1ccccc1CNC(=O)c1ccc2cnccc2n1	-	-	<0.01 µg/mL
CN(C)c1ncnc2c1ncn2Cc1cccc(C#N)c1	Serotype 1B	M-HELA	>50 µM
CN(C)c1nc(C(F)(F)F)nc2c1ncn2Cc1ccccc1	Serotype 2	M-HELA	>8 µM

Repeating the final 3 entries:

compound | strain | cell line | result
CCCOc1ccccc1CNC(=O)c1ccc2cnccc2n1 | - | - | <0.01 µg/mL
CN(C)c1ncnc2c1ncn2Cc1cccc(C#N)c1 | Serotype 1B | M-HELA | >50 µM
CN(C)c1nc(C(F)(F)F)nc2c1ncn2Cc1ccccc1 | Serotype 2 | M-HELA | >8 µM